# According to PubChem BioAssay AID1063 (University of Pittsburgh Molecular Library Screening Center, 2008):
# The list shows a part of the results, in another mix than the full data. Calls of active or inactive are those of the source. Rule as the data show it: active = inhibition above about 50%; inactive = the rest.
# Assay: Leishmania major promastigote growth inhibition, primary screen (AID 1063);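 also: promastigotes grown with compound for 44 hours at 28 °C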
# Settings: Leishmania major promastigotes, resazurin fluorescence viability; at 10 µM; stronger effect = higher value
row,Structure (SMILES),inhibition
1,COc1ccc(OP(C)(=O)Nc2ccc(Br)cc2)cc1 (centres undefined),inactive: 46.6%
2,CCN(CC)CC(O)COC(=O)C(O)(c1ccccc1)C1CCCCC1 (centres undefined),inactive: 33.4%
3,CCc1ccc(OP(C)(=O)Nc2cccnc2)cc1 (centres undefined),inactive: 5.17%
4,CP(=O)(Oc1ccccc1)N1CCOC1=O (centres undefined),inactive: -4.86%
5,COc1ccccc1OP(C)(=O)Nc1c(C)n(C)n(-c2ccccc2)c1=O (centres undefined),inactive: -3.4%
6,CP(=O)(Nc1ccc(Cl)cc1)Oc1ccc(F)cc1 (centres undefined),inactive: -2.78%
7,CC(C)(C)c1ccc(OP(C)(=O)O)cc1,inactive: -4.49%
8,COc1ccccc1OP(C)(=O)Nc1ccccc1Br (centres undefined),inactive: -4.12%
9,CN(C)C(=O)c1c([N+](=O)[O-])cc([N+](=O)[O-])cc1[N+](=O)[O-],active: 100%
10,CP(=O)(OC12CC3CC(CC(C3)C1)C2)OC12CC3CC(CC(C3)C1)C2,inactive: 38.2%
11,CCOC(=O)c1ccc(NP(C)(=O)Oc2ccc(Cl)cc2)cc1 (centres undefined),inactive: 8.24%
12,Cc1cc(C)cc(OP(C)(=O)Nc2cccc(C(F)(F)F)c2)c1 (centres undefined),inactive: 8.39%
13,COc1ccc(OP(C)(=O)Nc2ccccc2Br)cc1 (centres undefined),inactive: -0.12%
14,COc1ccccc1OP(C)(=O)Nc1ccc(C)c(C)c1 (centres undefined),inactive: -2.44%
15,Cc1nc2ccc3ccccc3c2o1.O=[N+]([O-])c1cc([N+](=O)[O-])c(O)c([N+](=O)[O-])c1,inactive: 43.6%
16,CP(=O)(OCCOc1ccccc1)OCCOc1ccccc1,inactive: -8.67%
17,CP(=O)(Nc1ccc(Cl)cc1Cl)Oc1ccccc1 (centres undefined),inactive: -5.19%
18,CN(C)CCOC(=O)C(O)(c1ccccc1)C1CCCC1 (centres undefined),inactive: 0.72%
19,COc1ccc(OP(C)(=O)Nc2ccccn2)cc1 (centres undefined),inactive: -2.73%
20,O=[N+]([O-])c1cc([N+](=O)[O-])c(Nc2ccccn2)c([N+](=O)[O-])c1,active: 72.6%
21,Cc1c(NP(C)(=O)Oc2ccc(C(C)C)cc2)c(=O)n(-c2ccccc2)n1C (centres undefined),inactive: -6.33%
22,CCc1ccc(OP(C)(=O)O)cc1,inactive: -3.5%
23,COc1ccccc1OP(C)(=O)Nc1ccc(C)cc1C (centres undefined),inactive: 10.3%

row,Structure (SMILES),inhibition
1,CP(=O)(Nc1ccccn1)Oc1ccccc1 (centres undefined),inactive: 10.6%
2,CC(C)c1ccc(OP(C)(=O)Nc2ccc(SC(F)(F)F)cc2)cc1 (centres undefined),inactive: 11%
3,CP(=O)(Nc1ccccc1F)Oc1ccccc1 (centres undefined),inactive: -6.28%
4,O=C(OCCN1CCN(CCOCc2ccccc2)CC1)C(O)(c1ccccc1)c1ccccc1,inactive: 7.52%
5,COc1ccc(OP(C)(=O)Nc2ccc(SC(F)(F)F)cc2)cc1 (centres undefined),inactive: 22.1%
6,CCOC(=O)c1ccc(NP(C)(=O)Oc2ccc(F)cc2)cc1 (centres undefined),inactive: -0.91%
7,CCN(CC)CCCOC(=O)C(O)(c1ccccc1)C1CCCCC1 (centres undefined),inactive: 32.6%
8,CP(=O)(Nc1ccccc1)Oc1ccc(F)cc1 (centres undefined),inactive: -1.33%
9,COc1ccc(OP(C)(=O)Nc2cccc(Br)c2)cc1 (centres undefined),inactive: 10.5%
10,COc1ccc(NP(C)(=O)Oc2ccccc2OC)cc1 (centres undefined),inactive: -3.77%
11,CN(C)CCOC(=O)C(O)(c1ccccc1)C1CCCCC1 (centres undefined),inactive: 2.42%
12,O=[N+]([O-])c1cc([N+](=O)[O-])c(NCC2CCS(=O)(=O)C2)c([N+](=O)[O-])c1 (centres undefined),active: 99.8%
13,CCOP(C)(=S)SCC(=O)NC(C)(CC)C(=O)O (centres undefined),inactive: -5.66%
14,CP(=O)(Nc1ccc2c(c1)OCCO2)Oc1ccccc1 (centres undefined),inactive: 3.7%
15,Cc1ccccc1NP(C)(=O)Nc1ccccc1C,inactive: -6.66%
16,O=[N+]([O-])c1cc([N+](=O)[O-])c(-n2nnc3ccccc32)c([N+](=O)[O-])c1,inactive: -8.2%
17,Cc1nc2ccc3ccccc3c2s1.O=[N+]([O-])c1cc([N+](=O)[O-])c(O)c([N+](=O)[O-])c1,inactive: -7%
18,COc1ccccc1OP(C)(=O)Nc1c(C)cccc1C (centres undefined),inactive: -6.45%
19,CN1CCCCC1COC(=O)C1(O)c2ccccc2CCc2ccccc21 (centres undefined),inactive: 9.72%
20,CP(=O)(Nc1ccc(SC(F)(F)F)cc1)Oc1ccccc1 (centres undefined),inactive: -5.93%
21,CCCOc1ccc(NP(C)(=O)Oc2ccc(Cl)cc2)cc1 (centres undefined),active: 87.2%
22,CC1=NCCc2c1[nH]c1ccccc21.O=[N+]([O-])c1cc([N+](=O)[O-])c(O)c([N+](=O)[O-])c1,inactive: -3.34%
23,Cc1cc(C)cc(OP(C)(=O)Nc2ccc(C)cc2C)c1 (centres undefined),inactive: -1.49%

row,Structure (SMILES),inhibition
1,CCOC(=O)c1ccc(NP(C)(=O)Oc2cc(C)cc(C)c2)cc1 (centres undefined),active: 66.3%
2,CP(=O)(Nc1cccc(Br)c1)Oc1ccccc1 (centres undefined),inactive: -1.69%
3,Cc1cc(C)cc(OP(C)(=O)Nc2ccccn2)c1 (centres undefined),inactive: -2.56%
4,Cc1ccc(C)c(NP(C)(=O)Oc2ccccc2)c1 (centres undefined),inactive: 1.47%
5,CCN(CC)CCCOC(=O)C(O)(c1ccccc1)c1ccccc1,inactive: 26.9%
6,Cc1cccc(C)c1OP(C)(N)=O (centres undefined),inactive: -6.96%
7,CC(C)(C)c1ccc(OP(C)(=O)Nc2ccc(SC(F)(F)F)cc2)cc1 (centres undefined),inactive: 25.9%
8,O=[N+]([O-])c1ccc2c(c1)C=Nc1ccccc1O2,active: 97.8%
9,CCOC(=O)c1ccc(NP(C)(=O)Oc2ccccc2)cc1 (centres undefined),inactive: -4.69%
10,Cc1ccc(NP(C)(=O)Oc2ccccc2)c(C)c1 (centres undefined),inactive: -5.02%
11,COc1ccccc1OP(C)(=O)Nc1ccc(C)cc1 (centres undefined),inactive: -8.92%
12,COc1ccc(OP(C)(=O)Nc2cccc(F)c2)cc1 (centres undefined),inactive: -7.43%
13,COc1ccccc1OP(C)(=O)Nc1cc(Cl)ccc1C (centres undefined),inactive: 1.51%
14,Cc1cc(C)cc(OP(C)(N)=O)c1 (centres undefined),inactive: -11.7%
15,CP(=S)(Nn1cnnc1)Oc1ccccc1 (centres undefined),inactive: -5.43%
16,COc1ccccc1OP(C)(=O)Nc1ccccc1 (centres undefined),inactive: -1.49%
17,CP(=O)(Nc1ccccc1Br)Oc1ccccc1 (centres undefined),inactive: -5.15%
18,CP(=O)(Oc1ccccc1)OC(c1ccccc1)C(F)(F)F (centres undefined),inactive: -3.68%
19,Cc1cccc(C)c1OP(C)(=O)Nc1ccc(SC(F)(F)F)cc1 (centres undefined),inactive: 16.6%
20,Cc1cc(C)cc(OP(C)(=O)Nc2ccc(SC(F)(F)F)cc2)c1 (centres undefined),inactive: 3.35%
21,CP(=O)(NC(=O)Nc1ccccc1)Oc1ccccc1 (centres undefined),inactive: -2.35%
22,CCOC(=O)c1ccc(NP(C)(=O)Oc2ccc(OC)cc2)cc1 (centres undefined),inactive: -1.06%
23,CP(=O)(Nc1ccccn1)Oc1ccc(Cl)cc1 (centres undefined),inactive: 3.27%
